Isolated mass, isolated yield and step yield data for 17 substances are collected here from article PMC11066871 (Journal of the American Chemical Society, 2024).

This data set is described as follows: general procedure: Fmoc solid-phase peptide synthesis; Trt-TentaGel (C-terminal acids), Rink Amide (C-terminal amides), Fmoc-Tyr-hydrazide Trt resin (hydrazides); HATU, DiPEA (PEG spacer coupling). The settings on record: for isolated mass / isolated yield: whole synthesis; for isolated yield: scale of the general procedure 10 μmol (optimization tests 25 μmol).

The mark [1] stands for this setting: on theoretical full scale of the synthesis.

In the case of “HHHHHH- PEG6-YSP TSP S-YpSP TSPS -YSPTSPS-YSP TSP S-YSP TS PS-YSPTSPS -Y-MPA”, the isolated mass was 1.22 µmol. Under setting [1], the isolated yield is 12%.

“HHHHHH- PEG6-YSP TSP S-YpSP TSPS -YSPTSPS-YSP TSP S-YSP TS PS-YSPTSPS -Y-NHNH2” displayed an isolated mass of 1.85 µmol. This substance gave an isolated yield under setting [1] of 19%.

Regarding “CPTSP S-YSP TSPS -YSP TSPS -YSP TSPS -YpSPTSPS-YSP TSP S-NH2”, the isolated mass is 4.44 µmol. In addition, the isolated yield under setting [1] was determined as 44%.

For “CPTSP S-YSP TSPS -YSP TSPS -YpSPTSPS-YSPTSPS -YSP TSP S-NH2”, the isolated mass was determined as 3.68 µmol. Also, the isolated yield under setting [1] was 37%.

As to “HHHHHH-PEG6-YSP TSP S-YpSP TSPS -YSPTSPS-YSP TSP S-YSP TS PS-YSPTSPS -NH2”, the isolated mass was 1.9 8 μmol and the isolated yield was determined as 40%.

“H6-NH-(CH2)2-PEG6-CO-YSPTSPS-YpSPTSPS-(YSPTSPS)4-YAPTSPS-(YSPTSPS)3-YpSPTSPS-YSPTSPS” came in with a step yield (coupling step, on MPA thioester used for NCL, over three steps) of 22%.

Turning to “HHHHHH- PEG6-YSP TSP S-YSP TSPS-YSP TSPS -YSPTSPS -Y SPTS P pS-YpSPpTSPS -NH2”, the isolated mass is on record as 1.8 5 μmol and the isolated yield worked out at 37%.

As for “HHHHHH- PEG6-YSP TSP S-YSP TSPS-YpSP TSPS -YSPTSPS-YSP TS PS-YSPTSPS -NH2”, the isolated mass is recorded as 1.9 3 μmol and the isolated yield is 39%.

“CPTSP S-YpSP TSPS -YSPTSPS-YS PTSPS -YSPTSPS -YSP TSP S-NH2” registered an isolated mass of 4.80 µmol. For the same substance, the isolated yield under setting [1] was 48%.

For the substance “HHHHHH- PEG6-YSP TSP S-YSP TSPS-YSP TSPS-YSPTSPS -Y SPTS P S-YSPTSPS -NH2”, the isolated mass is on record as 2.1 7 μmol and the isolated yield is given as 43%.

Turning to “HHHHHH- PEG6-YpSP TSPS -YSP TSPS -YSPTSPS-YSP TSP S-YSP TS PS-YSPTSPS -NH2”, the isolated mass was 0.5 1 μmol and the isolated yield was 10%.

“CPTSP S-YSP TSPS -YSP TSPS -YSP TSPS -YSPTSPS-YpSPTSPS-NH2” yielded an isolated mass of 3.63 µmol. Under setting [1], this substance returned an isolated yield of 36%.

For the substance “HHHHHH- PEG6-YSP TSP S-YSP TSPS-YSP TSPS -YSPTSPS -YSPTS P pS-YpSPTSPS-NH2”, the isolated mass is reported as 1.1 6 μmol and the isolated yield is on record as 23%.

Turning to “HHHHHH-PEG6-YSP TSP S-YSP TSPS-YSP TSPS -YSPTSPS -Y SPTS P S-YSPTSPS -Y-MPA”, the isolated mass was 1.76 µmol. The isolated yield under setting [1] amounted to 18%.

Substance “CPTSP S-YSP TSPS -YpSPTSPS-YS PTSPS -YSPTSPS -YSP TSP S-NH2” gave an isolated mass of 4.44 µmol. Further, the isolated yield under setting [1] is on record as 44%.

Consider “HHHHHH- PEG6--YSPTSPS-YSP TSPS -YSPTSPpS-YSP TSP S-YSP TSPS-YSP TSPS -NH2”, for which the isolated mass is reported as 4.2 6 μmol and the isolated yield turned out to be 36%.

As for “HHHHHH- PEG6-YSP TSP S-YSP TSPS-YSP TSPS -YSPTSPS -Y SPTS P S-YSPTSPS -Y-NHNH2”, the isolated mass was determined as 2.52 µmol. Under setting [1], this substance showed an isolated yield of 25%.
